Consider one molecule from article PMC4412288, “Crystal Structures of the Carboxyl cGMP Binding Domain of the Plasmodium falciparum cGMP-dependent Protein Kinase Reveal a Novel Capping Triad Crucial for Merozoite Egress” (PLoS Pathogens, 2015).

Sequences of proteins named here, by UniProt entry; tags and fusion partners are left off.
UniProt Q8I719, whole entry Q532A: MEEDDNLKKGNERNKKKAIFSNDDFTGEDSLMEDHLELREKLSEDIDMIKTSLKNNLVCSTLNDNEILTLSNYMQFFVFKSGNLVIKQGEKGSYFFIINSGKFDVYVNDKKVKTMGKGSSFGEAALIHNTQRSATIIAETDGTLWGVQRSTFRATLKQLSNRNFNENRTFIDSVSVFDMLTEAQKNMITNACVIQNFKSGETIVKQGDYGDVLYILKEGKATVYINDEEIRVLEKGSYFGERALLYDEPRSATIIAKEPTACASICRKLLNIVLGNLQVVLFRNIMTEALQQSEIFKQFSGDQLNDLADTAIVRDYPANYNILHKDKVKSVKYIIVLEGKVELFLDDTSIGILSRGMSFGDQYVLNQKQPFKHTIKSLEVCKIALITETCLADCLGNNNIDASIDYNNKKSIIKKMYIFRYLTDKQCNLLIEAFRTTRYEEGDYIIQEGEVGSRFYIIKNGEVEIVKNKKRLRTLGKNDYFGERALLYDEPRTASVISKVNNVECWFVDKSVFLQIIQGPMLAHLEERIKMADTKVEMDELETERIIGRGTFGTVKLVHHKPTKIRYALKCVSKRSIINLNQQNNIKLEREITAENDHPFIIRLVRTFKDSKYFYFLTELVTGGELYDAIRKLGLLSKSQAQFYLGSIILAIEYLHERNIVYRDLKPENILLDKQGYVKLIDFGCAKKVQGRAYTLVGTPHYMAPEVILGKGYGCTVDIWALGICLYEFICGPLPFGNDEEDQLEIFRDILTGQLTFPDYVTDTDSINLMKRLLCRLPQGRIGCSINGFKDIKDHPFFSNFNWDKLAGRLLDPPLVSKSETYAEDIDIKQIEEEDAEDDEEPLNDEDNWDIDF
UniProt Q8I719, whole entry R484A: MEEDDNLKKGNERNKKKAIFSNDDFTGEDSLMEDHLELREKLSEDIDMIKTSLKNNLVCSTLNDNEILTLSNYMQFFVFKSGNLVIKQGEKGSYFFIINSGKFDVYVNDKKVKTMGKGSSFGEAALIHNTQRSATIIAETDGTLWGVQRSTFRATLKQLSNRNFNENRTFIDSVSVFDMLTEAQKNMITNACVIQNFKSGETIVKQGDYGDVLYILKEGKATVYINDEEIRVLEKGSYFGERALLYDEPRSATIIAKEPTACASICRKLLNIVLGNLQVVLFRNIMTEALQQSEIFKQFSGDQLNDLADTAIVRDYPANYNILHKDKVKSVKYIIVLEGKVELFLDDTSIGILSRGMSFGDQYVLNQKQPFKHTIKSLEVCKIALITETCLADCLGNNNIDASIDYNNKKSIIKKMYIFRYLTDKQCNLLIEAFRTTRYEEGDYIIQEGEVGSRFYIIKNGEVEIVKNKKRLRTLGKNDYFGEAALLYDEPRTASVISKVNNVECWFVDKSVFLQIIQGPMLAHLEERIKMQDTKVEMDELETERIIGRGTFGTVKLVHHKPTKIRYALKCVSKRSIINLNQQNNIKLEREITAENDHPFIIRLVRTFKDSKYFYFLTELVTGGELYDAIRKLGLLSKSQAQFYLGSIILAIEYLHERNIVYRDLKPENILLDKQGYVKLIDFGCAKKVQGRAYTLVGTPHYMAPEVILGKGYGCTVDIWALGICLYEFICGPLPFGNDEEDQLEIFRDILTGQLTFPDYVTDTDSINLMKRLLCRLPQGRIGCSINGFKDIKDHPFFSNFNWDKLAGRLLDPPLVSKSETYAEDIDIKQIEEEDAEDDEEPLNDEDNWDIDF
UniProt Q8I719, whole entry R484A/Q532A/D533A: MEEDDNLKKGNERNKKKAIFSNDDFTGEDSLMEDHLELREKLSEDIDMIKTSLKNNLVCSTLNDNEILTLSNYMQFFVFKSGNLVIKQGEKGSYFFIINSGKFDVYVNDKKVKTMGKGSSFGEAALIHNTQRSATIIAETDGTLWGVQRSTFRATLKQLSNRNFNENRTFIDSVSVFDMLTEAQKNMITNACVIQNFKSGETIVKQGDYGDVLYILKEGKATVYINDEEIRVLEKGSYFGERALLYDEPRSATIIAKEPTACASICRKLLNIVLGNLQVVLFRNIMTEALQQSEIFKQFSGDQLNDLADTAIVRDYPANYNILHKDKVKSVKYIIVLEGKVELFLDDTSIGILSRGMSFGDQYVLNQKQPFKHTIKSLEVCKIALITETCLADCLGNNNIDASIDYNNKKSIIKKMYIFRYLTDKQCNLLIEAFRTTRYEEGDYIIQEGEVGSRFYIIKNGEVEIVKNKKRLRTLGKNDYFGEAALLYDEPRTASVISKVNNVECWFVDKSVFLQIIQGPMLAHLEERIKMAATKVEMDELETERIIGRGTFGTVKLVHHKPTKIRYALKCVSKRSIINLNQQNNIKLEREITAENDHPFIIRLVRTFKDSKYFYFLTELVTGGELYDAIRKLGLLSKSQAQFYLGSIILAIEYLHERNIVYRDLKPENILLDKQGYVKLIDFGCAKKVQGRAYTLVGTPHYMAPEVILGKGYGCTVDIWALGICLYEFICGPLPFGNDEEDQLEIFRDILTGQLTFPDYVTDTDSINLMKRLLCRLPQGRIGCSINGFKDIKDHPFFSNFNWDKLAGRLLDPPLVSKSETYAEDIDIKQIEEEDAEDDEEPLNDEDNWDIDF

Molecules are shown by their SMILES. Some entries of the source have several records that differ or are many. The other results are left out here. An entry can have further records. Results that share an entry do not match, cause unknown; they may come from other doses, times, organisms or constructs than stated.

In assay [1] the target is PfPKG (1-853) R484A/Q532A/D533A (Plasmodium falciparum, UniProt Q8I719, D533A/Q532A/R484A).
A further assay has as its target PfPKG (1-853) R484A (Plasmodium falciparum, UniProt Q8I719, R484A).
The next assay has as its target PfPKG (1-853) Q532A (Plasmodium falciparum, UniProt Q8I719, Q532A).

Regarding `Nc1nc2c(ncn2[C@@H]2O[C@@H]3COP(=O)(O)O[C@H]3[C@H]2O)c(=O)[nH]1` [cGMP, Cyclic GMP], the “Ka ± SEM (n), activation constant” value in assay [1] was > 1.8 μM and 1.8 ± 0.4 μM (2); at PfPKG (1-853) R484A, 2–3 μM and 2.1 ± 0.5 μM (2); at PfPKG (1-853) Q532A it was 2–3 μM and 2.8 ± 0.3 μM (2).
